Tested on: M. tuberculosis Spec. 210
Test: Tuberculostatic activity, Microplate Alamar Blue Assay (MABA)
Type: cell-based, Mycobacterium tuberculosis
Conditions: resistant Spec. 210 isolate
Experimental: The synthesized compounds were examined in vitro for their tuberculostatic activity using MABA method (Microplate Alamar Blue Assay method). […] The inoculum was prepared from fresh LJ culture in Middlebrook 7H9 Broth medium with OADC, adjusted to a no. 1 McFarland tube, and diluted 1:20. […] Each test compound stock solution was diluted in Middlebrook 7H9 Broth medium with OADC by fourfold, the final highest concentration to be tested. Compounds were diluted serially in sterile 96-well microtiter plates using 100 μL Middlebrook 7H9 Broth medium with OADC. […] A growth control containing no antibiotic and a sterile control without inoculation were also prepared on each plate. The plates were incubated at 37 °C for a week. After the incubation period, 30 μL of Alamar blue solution was added to each well, and the plate was re-incubated for 24 h. Growth is indicated by a color change from blue to pink and the lowest concentration of compound that prevented the color change was noted as its MIC. Isoniazid (INH), Rifampicin (RMP), Streptomycin (SM), and Ethambutol (EMB) as reference drugs were used for comparison.

Structure (SMILES) | inhibitory properties stronger than the reference tuberculostatics
FC(F)(F)c1cccc([N-]C(=S)Nc2cccc(Br)c2)c1.FC(F)(F)c1cccc([N-]C(=S)Nc2cccc(Br)c2)c1.[Cu+2] [Cu4, Copper(II) Complex with 1-(3-bromophenyl)-3-[3-(trifluoromethyl)phenyl] thiourea] | 4–8 fold
O.O=[N+]([O-])c1cc(NC(=S)[N-]c2cccc(C(F)(F)F)c2)ccc1Cl.O=[N+]([O-])c1cc(NC(=S)[N-]c2cccc(C(F)(F)F)c2)ccc1Cl.[Cu+2] [Cu5, Copper(II) Complex with 1-(4-chloro-3-nitrophenyl)-3-[3-(trifluoromethyl)phenyl]thiourea] | 4–8 fold
CC(NC(=S)[N-]c1cccc(C(F)(F)F)c1)c1ccccc1.CC(NC(=S)[N-]c1cccc(C(F)(F)F)c1)c1ccccc1.[Cu+2] (racemic) [Cu2, Copper(II) Complex with 1-(1-phenylethyl)-3-[3-(trifluoromethyl)phenyl]thiourea] | 2–4 fold

From article PMC9779606, “Synthesis, Structural Characterization and Biological Activity Evaluation of Novel Cu(II) Complexes with 3-(trifluoromethyl)phenylthiourea Derivatives” (International Journal of Molecular Sciences, 2022)
